Taken from: PubChem BioAssay AID1259414 (Drosophila RNAi Screening Center, 2018)
Assay: 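Genome-wide screen for host control of endosymbiont load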 (primary screen). System: Drosophila JW18 cells infected with Wolbachia. Reagents: long dsRNA against Drosophila genes, 0.25 µg dsRNA per well of a 384-well plate. Duration: 5 days. Treatment: cells persistently infected with Wolbachia before knock-down; no added drug. Detection: 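Imaged fluorescence in situ signal for Wolbachia 23S rRNA per DAPI-counted host cell, given as a robust z-score within each plate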. Scale: Wolbachia per cell robust z: higher = more Wolbachia per host cell than the plate typical. Call rule: 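Hit when robust z is 1.5 or more, or -1.5 or less, in at least two of three replicates; excludes dsRNAs with several or no targets, genes not expressed in JW18 and well A1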.
The screen tested about 24,000 reagents; below is a random part of those that have a named target and a result. In the full data, about 1,210 (5%) were called active. 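Inactive calls also include excluded dsRNAs with several or no targets, genes unexpressed in JW18, and well A1, regardless of score.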 Names joined by + are all predicted targets of the reagent.

| gene knocked down | DRSC id | Wolbachia per cell robust z, rep 1 | Wolbachia per cell robust z, rep 2 | Wolbachia per cell robust z, rep 3 | Call |
| --- | --- | --- | --- | --- | --- |
| GstE9 | DRSC06679 | -1.63 | -0.629 | 1.25 | inactive |
| GstE9 | DRSC29204 | -0.26 | -0.662 | 0.0422 | inactive |
| Fcp3C | DRSC18665 | -0.836 | -8.23 | -0.427 | inactive |
| CG15356 | DRSC00386 | 0.429 | 0.0155 | 0.492 | inactive |
| Cyp4s3 | DRSC20241 | -0.151 | 0.654 | -2.25 | inactive |
| Cyp4s3 | DRSC22340 | -1.28 | 0.727 | 0.0597 | inactive |
| Cyp4s3 | DRSC24027 | 0.969 | 0.398 | 0.301 | inactive |
| Ir67c | DRSC22097 | -0.567 | 0.983 | -0.694 | inactive |
| CG14191 | DRSC19546 | 0.00363 | 0.316 | 0.0664 | inactive |
| CG14191 | DRSC25317 | 0.246 | -0.859 | -0.723 | inactive |
| Uggt | DRSC11315 | 0.0622 | 0.142 | 0.277 | inactive |
| CG9521 | DRSC20196 | 0.394 | -0.387 | 0.177 | inactive |
| Ccz1 | DRSC08439 | 1.12 | -0.541 | 1.03 | inactive |
| snoRNA:U3:9B | DRSC37902 | 2.33 | 0.392 | 1.05 | inactive |
| GlyRS | DRSC10711 | 0.261 | -0.0433 | 2.01 | inactive |
| CG10486 | DRSC09735 | 0.238 | 0.2 | 0.113 | inactive |
| PGRP-LF + UGP | DRSC10418 | -0.764 | 0.836 | -0.416 | inactive |
| CG7213 | DRSC10787 | 0.0841 | -0.49 | -0.568 | inactive |
| l(2)37Cb | DRSC02095 | -4.94 | -1.43 | -8 | active |
| l(2)37Cb | DRSC24383 | -1.64 | -8.53 | -13 | active |
| Adsl | DRSC15500 | 0.114 | 1.18 | 1.64 | inactive |
| CG33325 | DRSC12699 | -0.66 | -1.59 | -9.31 | inactive |
| CG13297 | DRSC09971 | 0.617 | 0.905 | -0.695 | inactive |
| Cpr92F | DRSC15819 | -1.02 | -1.01 | -2.06 | inactive |
| CG8661 | DRSC20115 | -0.316 | 0.864 | -1.07 | inactive |
| CG8661 | DRSC29778 | 0.252 | 1.2 | -5.25 | inactive |
| CG17361 | DRSC23446 | 0.236 | -1.09 | -16.1 | inactive |
| CG15705 | DRSC06576 | -2.53 | 0.147 | 0.462 | inactive |
| CG15705 | DRSC29360 | -0.143 | -0.0815 | 0.00237 | inactive |
| vls | DRSC02101 | 1.05 | -1.15 | -1.85 | inactive |
| vls | DRSC27088 | 0.532 | -1.76 | 0.148 | inactive |
| lawc | DRSC23208 | 1.33 | 1.84 | 0.669 | inactive |
| CG6362 | DRSC07413 | 0.0358 | -0.292 | -0.327 | inactive |
| CG6362 | DRSC26135 | 0.672 | -1.5 | -1.07 | inactive |
| CG31064 | DRSC14756 | 0.293 | -2.55 | -2.99 | active |
| CG31064 | DRSC15941 | 1.35 | 1.16 | 0.883 | inactive |
| CG31064 | DRSC15942 | 1.13 | 0.644 | -0.898 | inactive |
| CG31064 | DRSC15943 | -0.492 | 0.712 | -1.63 | inactive |
| AOX4 | DRSC15337 | -0.773 | 0.418 | -0.106 | inactive |
| AOX4 | DRSC26337 | 0.222 | 0.383 | 1.1 | inactive |
| CG1965 | DRSC12577 | -0.582 | 1.45 | 0.396 | inactive |
| CG1965 | DRSC21828 | -1.29 | -0.273 | -0.367 | inactive |
| Tmtc4 | DRSC15702 | -0.118 | 1.01 | 1.21 | inactive |
| CNPYb | DRSC09845 | -0.847 | 0.0218 | -1.21 | inactive |
| CG31248 | DRSC22722 | -0.88 | -1.67 | -0.09 | inactive |
| CstF64 | DRSC16616 | -6.48 | -0.768 | -0.355 | inactive |
| CstF64 | DRSC29486 | 0.513 | 0.792 | 1.22 | inactive |
| ChAT + VAChT | DRSC13312 | -0.561 | 0.698 | 0.999 | inactive |
| CG8891 | DRSC03120 | -6.24 | -0.772 | -0.207 | inactive |
| CG8891 | DRSC28308 | -1.31 | -0.296 | -1.04 | inactive |
| NijC | DRSC14851 | 0.00745 | -1.75 | -6.68 | inactive |
| NijC | DRSC29054 | -0.788 | 0.49 | 0.349 | inactive |
| Aatf | DRSC02131 | -10.4 | -1.7 | 0.557 | active |
| Aatf | DRSC29405 | -1.62 | -2.36 | -1.54 | active |
| wrapper | DRSC04723 | -0.71 | 0.31 | 0.257 | inactive |
| PH4alphaSG2 | DRSC15037 | -0.121 | 0.331 | 0.371 | inactive |
| CheB42c | DRSC04972 | -1.66 | 0.166 | -1.04 | inactive |
| CheB42c | DRSC27357 | -5.57 | -1.46 | -6.73 | active |
| Usp16-45 | DRSC18352 | -0.00315 | -1.8 | 0.0589 | inactive |
| Usp16-45 | DRSC26519 | 0.301 | -0.204 | 0.273 | inactive |
| Bace | DRSC02197 | -0.978 | 0.297 | -0.237 | inactive |
| Bace | DRSC28723 | -1.39 | -2.49 | -0.408 | inactive |
| CG13050 | DRSC09931 | 0.358 | -0.607 | 1.58 | inactive |
| Edg78E | DRSC11863 | -0.0106 | 0.56 | 0.72 | inactive |
| Edg78E | DRSC26712 | -0.0022 | -0.125 | -0.0498 | inactive |
| mbf1 | DRSC11365 | 0.352 | 0.487 | 1.5 | inactive |
| PGRP-SC1b | DRSC07215 | 1.07 | -0.324 | -0.476 | inactive |
| CG17929 | DRSC15291 | -0.0935 | -6.12 | -0.116 | inactive |
| CG30056 | DRSC21752 | 0.811 | 0.707 | -0.174 | inactive |
| CG10333 | DRSC02036 | 0.0628 | 1.53 | 0.566 | inactive |
| CG10333 | DRSC29270 | -7.51 | -0.785 | 0.413 | inactive |
| gpp | DRSC12515 | 0.406 | 0.258 | 0.87 | inactive |
| gpp | DRSC28193 | -0.573 | 0.961 | -0.552 | inactive |
| Ndg | DRSC06223 | -0.579 | 0.337 | -0.595 | inactive |
| Ndg | DRSC28402 | -6.61 | -0.374 | -0.694 | inactive |
| CG18545 | DRSC15343 | -1.17 | -1.49 | -0.632 | inactive |
| Grl43a | DRSC06383 | -0.373 | -1.15 | -0.298 | inactive |
| CG13679 | DRSC10037 | 0.0322 | -4.37 | 0.457 | inactive |
| CG13679 | DRSC22749 | 0.273 | 0.166 | 0.504 | inactive |
| FDY | DRSC38616 | 0.681 | 0.77 | -0.277 | inactive |
| CG32407 | DRSC09789 | -0.32 | 0.128 | 0.736 | inactive |
| CG17601 | DRSC20639 | -0.104 | -1.25 | -0.729 | inactive |
| CG34308 | DRSC38663 | -1.6 | -1.68 | 1.14 | inactive |
| CG34308 | DRSC40664 | 0.477 | 0.0832 | -0.163 | inactive |
| CG6766 | DRSC02991 | 0.163 | -0.117 | -1.07 | inactive |
| zpg | DRSC09702 | -0.713 | -0.587 | -0.207 | inactive |
| zpg | DRSC26258 | 1.17 | 0.367 | 0.968 | inactive |
